The record followed here is paper PMC3204966.

Series [1] relates to Nc1nc2c(ncn2[C@@H]2O[C@H](COP(=O)(O)OP(=O)(O)O[C@H]3O[C@H](CO)[C@@H](O)[C@H](O)[C@@H]3O)[C@@H](O)[C@H]2O)c(=O)[nH]1. The series can be described thus: purified protein. The conditions noted are these: pH 7.55; 25.0 °C.
The test system of series [2] is O=P(O)(O)O[C@H]1O[C@H](CO)[C@@H](O)[C@H](O)[C@@H]1O. The series can be described thus: purified protein. The conditions noted are these: pH 7.55; 25.0 °C.

For “CBU0671 (type II PMI; PMI/GMP) (Coxiella burnetii RSA 493)”, in series [1], the Km worked out at 379 µM and the maximal velocity (Vmax) was 0.757 µmol/min.
“CBU0294 (PMM) (Coxiella burnetii RSA 493)”: in series [2], the Km worked out at 228 µM and the Vmax came out at 44 µmol/min.
